Results of unrelated studies side by side (data: NIAID ChemDB).

Common to all: growth or infection tests; species: Mycobacterium tuberculosis

Blank or dashed fields: not listed here. a–b is a range or a potency band. MIC50, MIC90 and the like: level of inhibition, or share of isolates inhibited. MIC bound comes from a single tested concentration. ECn is the concentration giving n% inhibition of infection, replication or growth. Rows are shuffled and stem from different studies. Inhibition is in % at the dose shown (toxicity tests: loss of growth or viability).

smiles,mutations,strain or isolate,measure,setting,dose,method,value
CCCCn1c(C)c2c(OCCO)nn(C)c(=O)c2c1C,,H37Rv,inhibition,,12.5 µg/mL,,26%
CO[C@H]1/C=C/O[C@@]2(C)Oc3c(C)c(O)c4c5c(cc(O)c4c3C2=O)N=C(O5)/C(C)=C\C=C\[C@H](C)[C@H](O)[C@@H](C)[C@@H](O)[C@@H](C)[C@H](OC(C)=O)[C@@H]1C,,H37Rv,MIC bound,,,resazurin,>6.25 µg/mL
Cc1ccc2nc(Oc3ccccc3)c(C3C(C#N)=C(N)Oc4c3c(=O)oc3ccc(C)cc43)cc2c1,,H37Rv,inhibition,,250 µg/mL,,10%
Cc1c2c(OCC(O)CN3CCN(c4ccccc4)CC3)nn(C)c(=O)c2c(C)n1-c1ccccc1,,H37Rv,inhibition,,12.5 µg/mL,,3%
Cc1cccc(C(N)=Nc2nc(-c3ccccn3)cc3ccccc23)c1,,J-2983,MIC,,,,0.5 µg/mL
CC(COc1ccccc1)NC(C)C(O)c1ccc(O)cc1,,,MIC90,,,,>128 µg/mL
O=c1cc(-c2ccccc2-c2cccc3c(=O)cc(-c4ccccc4)oc23)oc2ccccc12,,,MIC,,,,>12.5 µg/mL
NNC(=O)c1ccncc1,INH RIF resistant,Clinical isolate BRF 45,MIC,,,resazurin,4 µg/mL
O=C(NNC(=O)c1ccncc1)Nc1c(Cl)cc(Cl)cc1Cl,,My 331/88,MIC100,14 d,,broth dilution,4 µM
Cc1ccnc(NS(=O)(=O)c2ccc(N=Nc3c(N)nc(N)nc3N)cc2)n1,,H37Rv,inhibition,,12.5 µg/mL,BACTEC,84%
CC(=O)OCC(=O)[C@H]1CC[C@H]2[C@@H]3CCC4=CC(=O)CC[C@]4(C)[C@H]3CC[C@]12C,,,MIC90,,,,64 µg/mL
Cc1ccc(Oc2nc3ccc(C)cc3cc2C2C(C#N)=C(N)Oc3c2c(=O)oc2ccccc32)cc1,,H37Rv,inhibition,,250 µg/mL,,74%
c1ccc(CN(CCN(Cc2ccccn2)Cc2ccccn2)Cc2ccccn2)nc1,,,MIC90,,,,8 µg/mL
CCNc1nn2ccccc2c1C=C(C#N)C(=O)OCC,,H37Rv,inhibition,,6.25 µg/mL,resazurin,34%
CCCCCCCCCCCCCCCCn1c(=O)c2c(C)n(CCCC)c(C)c2c(=O)n1C,,H37Rv,inhibition,,12.5 µg/mL,,20%
COc1cc2c(cc1OC)-c1cc3ccc(OC)c(OC)c3c[n+]1CC2,,,MIC90,,,,>128 µg/mL
CCC1CCCCN1CCNC/C=C(\C)CCC=C(C)C,,H37Rv,MIC,,,,1 µM
CN1CCN(CCCN2c3ccccc3Sc3ccc(C(F)(F)F)cc32)CC1,,,MIC90,,,,8 µg/mL
O=c1/c(=C/c2ccccc2[N+](=O)[O-])sc2nnc(-c3cccnc3)n12,,H37Rv,MIC bound,,,BACTEC,>12.5 µg/mL
O=C(NNC(=O)c1ccncc1)Nc1ccc(Br)c(C(F)(F)F)c1,,My 331/88,MIC100,14 d,,broth dilution,8 µM
Cl.NC1CC(=O)N(Cc2ccccc2)C1=O,,H37Rv,MIC bound,,,BACTEC,>12.8 µg/mL
O=C(c1ccc(Cl)cc1)c1ccc(-c2ccc(Br)cc2)cc1,,ATCC 27294,MIC,,,,≤0.5 µg/mL
Cc1cc(/C=N/Nc2ccc3cccc(O)c3n2)c(O)c2ncccc12,,H37Rv,MIC bound,,,BACTEC,>12.5 µg/mL
COCCO/N=C/c1c2c(O)c3c(O)c(C)c4c(c3c1O)C(=O)[C@@](C)(O/C=C/[C@H](OC)[C@@H](C)[C@@H](OC(C)=O)[C@H](C)[C@H](O)[C@H](C)[C@@H](O)[C@@H](C)/C=C/C=C(/C)C(=O)N2)O4,,H37Rv,MIC,,,,0.1 µg/mL
CCC(C)NCCNC(CC)CO,,H37Rv,MIC,,,,150 µM
COc1ccc(N=C2C(=Nc3ccc(OC)cc3)N(c3ccccc3)C(=S)N2N=C=C2Sc3ccccc3N2C)cc1,,H37Rv,MIC bound,,,BACTEC,>12.5 µg/mL
Cc1c2c(OCCCCN3CCN(c4ncccn4)CC3)nn(C)c(=O)c2c(C)n1-c1ccccc1,,H37Rv,inhibition,,12.5 µg/mL,,43%
C=C[C@H](OC(C)=O)c1ccc(OC(C)=O)cc1,,Clinical isolates,MIC,,,,0.1–0.5 µg/mL
COc1cc(/C=N/NC(=O)Cc2nn(Cc3ccc(Br)cc3F)c(=O)c3ccccc23)ccc1O,,Multidrug-resistant (MDR),MIC,,,,3.05 µM
COc1ccc2cc3[n+](cc2c1OC)CCc1cc2c(cc1-3)OCO2,,,MIC90,,,,128 µg/mL
COc1ccc(-c2oc3cc(OC)cc(OC)c3c(=O)c2-c2c(-c3ccc(OC)cc3)oc3cc(OC)cc(OC)c3c2=O)cc1,,,EC50,,,,>12.5 µg/mL
CCC(CO)NCCNC(CC)CO,,H37Rv,MIC,,,,37.5 µM
CCCCCCCCc1ccc(NC(=O)NNC(=O)c2ccncc2)cc1,,My 331/88,MIC100,14 d,,broth dilution,1 µM
CC1(C)N=c2cc3c(cc2N1c1ccc(Cl)cc1)=Nc1ccccc1N3c1ccc(Cl)cc1,,KM-R,MIC,,,,0.8 µg/mL
C#C[C@@]12O[C@]1(C=O)[C@@H]1[C@@H](O)C[C@H]3C(C)(C)CCC[C@]3(C)[C@H]1CC2=O,,Resistant strains,MIC,,,,12.5 µg/mL
CC(/C=C/C(=O)c1sc(-n2nc(-c3ccccc3)cc2-c2ccccc2)nc1C)=C\c1ccccc1,,H37Rv,inhibition,,6.25 µg/mL,resazurin,43%
CO[C@H]1/C=C/O[C@@]2(C)Oc3c(C)c(O)c4c(O)c(c(/C=N/OCCc5ccccc5)c(O)c4c3C2=O)NC(=O)/C(C)=C\C=C\[C@H](C)[C@H](O)[C@@H](C)[C@@H](O)[C@@H](C)[C@H](OC(C)=O)[C@@H]1C,,H37Rv,MIC,,,,0.2 µg/mL
CS(=O)(=O)c1ccc(C(=O)c2ccc(-c3ccc(Br)cc3)cc2)cc1,,ATCC 27294,MIC,,,,8 µg/mL
CC(C)CCCC(=O)CCCCCCC(=O)CCN(O)C(=O)C(N)CO,,H37Rv,MIC bound,,,BACTEC,>12.5 µg/mL
CCCC(CCC)O/N=C/c1c2c(O)c3c(O)c(C)c4c(c3c1O)C(=O)[C@@](C)(O/C=C/[C@H](OC)[C@@H](C)[C@@H](OC(C)=O)[C@H](C)[C@H](O)[C@H](C)[C@@H](O)[C@@H](C)/C=C/C=C(/C)C(=O)N2)O4,,H37Rv,MIC,,,,1 µg/mL
COc1cc(N=Nc2ccc(C(=O)N(C)C)cc2)c(C)cc1N=Nc1c(O)c2ccccc2[nH]c1=O,,H37Rv,MIC,,,BACTEC,≥12.5 µg/mL
C/C(=N\NC(=O)Cc1nn(Cc2ccc(Br)cc2F)c(=O)c2ccccc12)c1ccc(Br)cc1,,Multidrug-resistant (MDR),MIC,,,,2.79 µM
CO[C@H]1/C=C/O[C@@]2(C)Oc3c(C)c(O)c4c(O)c(c(/C=N/N5CCN(C/C=C/c6ccccc6)CC5)c(O)c4c3C2=O)NC(=O)/C(C)=C\C=C\[C@H](C)[C@H](O)[C@@H](C)[C@@H](O)[C@@H](C)[C@H](OC(C)=O)[C@@H]1C,,2257,MBC,,,,0.12 µg/mL
CCCCCC(C)O/N=C/c1c2c(O)c3c(O)c(C)c4c(c3c1O)C(=O)[C@@](C)(O/C=C/[C@H](OC)[C@@H](C)[C@@H](OC(C)=O)[C@H](C)[C@H](O)[C@H](C)[C@@H](O)[C@@H](C)/C=C/C=C(/C)C(=O)N2)O4,,H37Rv,MIC,,,,2 µg/mL
NC(N)=Nc1ccc(-c2ccc(-c3ccc(N=C(N)N)cc3Cl)o2)c(Cl)c1,,,MIC,,,,12.5 µg/mL
CN[C@@H]1[C@H](O[C@H]2[C@H](O[C@H]3[C@H](O)[C@@H](O)[C@H](N=C(N)N)[C@@H](O)[C@@H]3N=C(N)N)O[C@@H](C)[C@]2(O)C=O)O[C@@H](CO)[C@H](O)[C@H]1O,,2219,MIC,,,,0.3 µg/mL
NNC(=O)C(=O)N=Cc1ccc([N+](=O)[O-])o1,,CS-R,MIC,,,,6.3 µg/mL
Cc1nc2nc(S(=O)(=O)Nc3c(Br)ccc4cccnc34)nn2c2c1CCC2,INH RIF resistant,M22,MIC50,,,visual reading,2 µM
O=C(NNC(=O)c1ccncc1)Nc1ccc(Br)c(F)c1,,My 331/88,MIC100,21 d,,broth dilution,62.5 µM
COc1cc2c(c(O)c1OC)-c1c(cc(OC)c(OC)c1OC)C[C@@H](C)[C@@H](C)C2,,H37Rv,inhibition,,12.5 µg/mL,BACTEC,13%
O=c1cc(-c2ccccc2)c2cc(Cl)ccc2o1,Isoniazid-resistant,,MIC90,,,resazurin,>100 µg/mL
O=C(c1ccc(Br)cc1)c1ccc(-c2ccc(Br)cc2)cc1,,ATCC 27294,MIC,,,,≤0.5 µg/mL
Cc1ccc(Oc2nc3ccccc3cc2C2C(C#N)=C(N)Oc3c2c(=O)oc2ccc(C)cc32)cc1,,H37Rv,inhibition,,250 µg/mL,,45%
O=C1C[C@@H](c2ccc(O)cc2)Oc2cc(O)c(-c3c(O)cc4c(c3O)C(=O)C[C@@H](c3ccc(O)cc3)O4)c(O)c21,,,MIC,,,,>12.5 µg/mL
O=C(O)CNC(=O)CN1C(=O)CC(NC(=O)OCc2ccccc2)C1=O,,H37Rv,MIC,,,BACTEC,≥12.5 µg/mL
CC(C)(C)c1ccc(NC(=O)NNC(=O)c2ccncc2)cc1,,My 331/88,MIC100,21 d,,broth dilution,16 µM
O=C(Nc1ccccc1)c1cc(-n2cnc([N+](=O)[O-])c2)ccn1,,FQR-M14,MIC,,,,1.25 µg/mL
CC(C)=CCC/C(C)=C/CNCCNC1C2CC3CC(C2)CC1C3,,H37Rv,MIC,,,,0.2 µM
O=C(Cc1nn(Cc2ccc(Br)cc2F)c(=O)c2ccccc12)N/N=C/c1ccc([N+](=O)[O-])cc1,,Multidrug-resistant (MDR),MIC,,,,<0.09 µM
CCC(CO)NCCNC(C)CO,,H37Rv,MIC,,,,75 µM
COc1ncc(F)c2nc(S(=O)(=O)Nc3ncccc3C(C)=O)nn12,INH RIF resistant,X59,MIC50,,,visual reading,0.5 µM
c1ccc(C(CNCCNCC23CC4CC(CC(C4)C2)C3)c2ccccc2)cc1,,H37Rv,MIC,,,,1 µM
CCOC(=O)NCCCc1ccc2oc3ccccc3c2c1,,H37Rv,inhibition,,12.5 µg/mL,BACTEC,89%
CO[C@@H]1C/C=C\C=C\C[C@H](C)[C@@H](O)C[C@@H](O)[C@H](C)[C@H](O)CC(=O)O[C@H]([C@H](C)[C@H](O)/C=C(\C)CC/C=C/C=C/CC(O)CC(C)CCC(=O)O)C[C@H](O)CCC1,inhA mutant isoniazid resistant,HUG.MB.6726,MIC,,,resazurin / absorbance,0.4 µg/mL
C/C=C1\CN2CCC1CC2C(O)c1ccnc2ccc(O)cc12,,H37Rv,MIC bound,,,,>6.25 µg/mL
O=c1cc(-c2ccc(O)c(-c3c(O)cc4oc(-c5ccc(O)cc5)cc(=O)c4c3O)c2)oc2cc(O)cc(O)c12,,,EC50,,,,>12.5 µg/mL
CCN(CC)CCN(C)Cc1coc(-c2ccccc2)c1Cl.Cl.Cl,,H37Rv,MIC bound,,,BACTEC,≤12.5 µg/mL
CCC(CO)NCCNCCc1ccc(OC)c(OC)c1,,H37Rv,MIC,,,,300 µM
O=C(CO)CC(=O)C(=O)Nc1nc([N+](=O)[O-])cs1,,H37Rv,MIC bound,,,resazurin,>6.25 µg/mL
CO[C@H]1/C=C/O[C@@]2(C)Oc3c(C)c(O)c4c(O)c(c(/C=N/OCCCCCCCCCCOc5ccccc5)c(O)c4c3C2=O)NC(=O)/C(C)=C\C=C\[C@H](C)[C@H](O)[C@@H](C)[C@@H](O)[C@@H](C)[C@H](OC(C)=O)[C@@H]1C,,H37Rv,MIC,,,,10 µg/mL
CSc1nc(-c2ccc(C)cc2)c(C#N)c(=O)[nH]1,,H37Rv,MIC bound,,,BACTEC,>12.5 µg/mL
COc1cc(N=C(N)N)ccc1-c1ccc(-c2ccc(N=C(N)N)cc2OC)o1,,,MIC,,,,12.5 µg/mL
NNC(=O)c1ccncc1,,My 331/88,MIC100,14 d,,broth dilution,0.5 µM
NNC(=O)c1ccncc1,,NHN335,MIC,,,,0.1 µg/mL
COc1ccc(-c2cc(=O)c3c(OC)c(-c4cc(OC)ccc4-c4cc(=O)c5c(OC)cc(OC)cc5o4)c(OC)cc3o2)cc1,,,MIC,,,,>12.5 µg/mL
Cc1ccc2nc(Oc3ccccc3)c(C3C(C#N)=C(N)Oc4c3c(=O)oc3ccccc43)cc2c1,,H37Rv,inhibition,,250 µg/mL,,52%
O=c1cc(-c2ccc(Oc3c(O)cc4oc(-c5ccc(O)cc5)cc(=O)c4c3O)cc2)oc2cc(O)cc(O)c12,,,EC50,,,,>12.5 µg/mL
CO[C@H]1/C=C/O[C@@]2(C)Oc3c(C)c(O)c4c(O)c(c(/C=N/OCCCCCCOc5ccccc5)c(O)c4c3C2=O)NC(=O)/C(C)=C\C=C\[C@H](C)[C@H](O)[C@@H](C)[C@@H](O)[C@@H](C)[C@H](OC(C)=O)[C@@H]1C,,H37Rv,MIC,,,,2 µg/mL

A second listing of 7 rows from above:

smiles	mutations	strain or isolate	measure	setting	dose	method	value
COc1cc(N=C(N)N)ccc1-c1ccc(-c2ccc(N=C(N)N)cc2OC)o1			MIC				12.5 µg/mL
Cc1cccc(C(N)=Nc2nc(-c3ccccn3)cc3ccccc23)c1		J-2983	MIC				0.5 µg/mL
O=c1/c(=C/c2ccccc2[N+](=O)[O-])sc2nnc(-c3cccnc3)n12		H37Rv	MIC bound			BACTEC	>12.5 µg/mL
CN[C@@H]1[C@H](O[C@H]2[C@H](O[C@H]3[C@H](O)[C@@H](O)[C@H](N=C(N)N)[C@@H](O)[C@@H]3N=C(N)N)O[C@@H](C)[C@]2(O)C=O)O[C@@H](CO)[C@H](O)[C@H]1O		2219	MIC				0.3 µg/mL
CSc1nc(-c2ccc(C)cc2)c(C#N)c(=O)[nH]1		H37Rv	MIC bound			BACTEC	>12.5 µg/mL
NNC(=O)c1ccncc1	INH RIF resistant	Clinical isolate BRF 45	MIC			resazurin	4 µg/mL
CCOC(=O)NCCCc1ccc2oc3ccccc3c2c1		H37Rv	inhibition		12.5 µg/mL	BACTEC	89%